A mixed list of measured activities; the numbers were collected in NIAID ChemDB.

All rows: growth or infection tests; organism: Mycobacterium tuberculosis

Inhibition is in % at the dose shown (toxicity tests: loss of growth or viability).

smiles,measure,dose,read by,strain or isolate,mutations,value
CCN(CC)c1cc2oc3cc(N)cc(=N)c-3nc2cc1C,inhibition,12.5 µg/mL,BACTEC,H37Rv,-,100%
CO[C@H]1/C=C/O[C@@]2(C)Oc3c(C)c(O)c4c(O)c(c(/C=N/N5CCN(C)CC5)c(O)c4c3C2=O)NC(=O)/C(C)=C\C=C\[C@H](C)[C@H](O)[C@@H](C)[C@@H](O)[C@@H](C)[C@H](OC(C)=O)[C@@H]1C,MIC,-,fluorescence,-,-,0.003 µM
CCCCC(=O)N/N=C/c1cccc(OC)c1OC,MIC bound,-,BACTEC,H37Rv,-,>12.5 µg/mL
c1csc(-c2nnc(Cc3cccc4ccccc34)o2)c1,MIC,-,fluorescence,-,-,0.4 µM
O=c1[nH]c2ccccc2n(CN(c2ccccc2)c2ccccc2)c1=O,MIC,-,resazurin,H37Rv,-,9.92 µg/mL
COc1cc(OC)nc(NC(=O)NS(=O)(=O)c2ncccc2C(=O)N(C)C)n1,MIC,-,-,P4145,-,62 µM
NNC(=O)c1ccncc1,MIC,-,resazurin,PA-824-resistant H37Rv,PA-824-resistant,0.05 µg/mL
C[C@H]1C[C@@H]1NC(=O)c1cc2sc(OC[C@@H]3CCOC3)nc2s1,MIC,-,visual reading,H37Rv,-,0.63 µM
Oc1cc(Cl)ccc1Oc1ccc(Cn2ccnn2)cc1Cl,MIC,-,MTT,mc4914,InhA overexpression,100 µg/mL
C[N+](C)(C)CC(=O)N/N=C1/c2ccccc2NC1[O-],inhibition,12.5 µg/mL,BACTEC,H37Rv,-,-8%
NC(=O)c1ncc(C(N)=S)nc1Nc1ccc(O)cc1,MIC,-,-,H37Rv,-,25 µg/mL
NC(=S)N/N=C1\COC(C(F)(F)F)(C(F)(F)F)C1,MIC bound,-,BACTEC,H37Rv,-,>12.5 µg/mL
NC(=O)c1ncc(C(N)=S)nc1N1CCOCC1,MIC,-,-,H37Rv,-,50 µg/mL
CC1(C)OC2OC(COC(=O)c3ccccc3)/C(=N\O)C2O1,inhibition,12.5 µg/mL,BACTEC,H37Rv,-,6%
Cc1cc(C(=O)NCc2ccc(Oc3ccc(Cl)cc3O)c(Cl)c2)no1,MIC,-,MTT,H37Rv,-,>100 µg/mL
CC1=CC(=O)/C(=C/n2c(=S)[nH]c3ccc([N+](=O)[O-])cc32)C(=O)O1,MIC bound,-,BACTEC,H37Rv,-,>12.5 µg/mL
COc1cccc(CNC(=O)c2c(C)nc3sc(C)cn23)c1,MIC,-,resazurin / fluorescence,H37Rv,-,1.12 µM
C#CCN(Cc1ccc2nc(N)[nH]c(=O)c2c1)c1ccc(C(=O)NC(CCC(=O)[O-])C(=O)[O-])cc1.[Na+].[Na+],MIC bound,-,BACTEC,H37Rv,-,>12.5 µg/mL
O=[N+]([O-])c1cn2c(n1)OC[C@@H](OCc1ccc(/C=C/c3ccc(C(F)(F)F)nc3)cc1)C2,MIC90,-,low oxygen,-,-,0.91 µM
C[C@H]1C[C@@H]1NC(=O)c1cc2sc(C3CC3)nc2s1,MIC,-,visual reading,H37Rv,-,1.88 µM
N[C@@H]1CONC1=O,MIC,-,fluorescence,-,-,>20 µM
CN(C)CCC(O)(c1cccc(F)c1)C1c2ccccc2Sc2ccccc21,MIC90,-,resazurin,H37Rv,-,7 µg/mL
Cc1cccc(Nc2nc(C(N)=S)cnc2C(N)=O)c1,MIC,-,-,H37Rv,-,>100 µg/mL
c1csc(-c2noc(-c3ccc4c(c3)OCO4)n2)c1,inhibition,20 µM,fluorescence,-,-,10%
C[C@H]1C[C@@H]1NC(=O)c1cc2sc(N3CCC(N4CCOCC4)CC3)nc2s1,MIC,-,visual reading,H37Rv,-,2.11 µM
O=C(/C=C/c1ccccc1)NNC(=O)c1cc(/C=C\c2ccco2)on1,inhibition,6.25 µg/mL,resazurin,H37Rv,-,80%
Cc1cn2c(C(=O)NCc3ccc(N4CCOCC4)c(F)c3)c(C)nc2s1,MIC,-,resazurin / fluorescence,H37Rv,cydKO,0.125 µM
OCCCN1c2ccccc2Sc2ccccc21,MIC90,-,resazurin,H37Rv,-,>32 µg/mL
O=[N+]([O-])c1cn2c(n1)OC[C@@H](OCc1ccc(Cc3ccc(C(F)(F)F)nc3)cc1)C2,MIC90,-,low oxygen,-,-,1.5 µM
C=C(C)C1CC=C(C)/C(=N/NC(=O)c2cccnc2)C1,MIC,-,-,PZA-R,-,0.4 µg/mL
CC(=O)/C=C(/C)O,MIC,-,resazurin,H37Rv (ATCC 27294),-,>50 µg/mL
CCCCc1cn(Cc2ccc(Oc3ccc(Cl)cc3Cl)c(O)c2)nn1,MIC,-,MTT,mc4977,INH resistant katG deletion,0.6 µg/mL
CNC(=S)N/N=C(\C)c1ccccn1,MIC,-,resazurin,H37Rv (ATCC 27294),-,7.8 µg/mL
O=c1[nH]c(=O)n([C@H]2C[C@H](I)[C@@H](CO)O2)cc1F,inhibition,32 µg/mL,-,H37Ra,-,100%
O=C(Nc1cc(Nc2ccc(NC(=O)c3ccccc3)c3c2C(=O)c2ccccc2C3=O)cc2c1C(=O)c1ccccc1C2=O)c1ccccc1,inhibition,12.5 µg/mL,BACTEC,H37Rv,-,-9%
c1ccc(N2c3ccccc3Sc3ccccc32)cc1,MIC,-,resazurin,H37Rv,-,4 µg/mL
O=Cc1ccc([N+](=O)ONNC(=O)c2cc(/C=C\c3ccco3)on2)cc1,inhibition,6.25 µg/mL,resazurin,H37Rv,-,37%
O=[N+]([O-])c1cn2c(n1)OC[C@@H](OCc1ccc(N3CCC(Oc4ccc(OC(F)(F)F)cc4)CC3)cc1)C2,MIC90,-,resazurin,-,-,0.02 µM
COc1nc(C)nc(NC(=O)NS(=O)(=O)c2ccccc2Cl)n1,MIC,-,-,P4145,-,62 µM
O=[N+]([O-])c1cn2c(n1)OC[C@@H](OCc1ccc(C#Cc3ccc(F)cc3)cn1)C2,MIC90,-,low oxygen,-,-,1 µM
CN(CCc1ccccc1)Cc1c(CC2CCCCC2)[nH]c2ccnc(Cl)c12,EC50,-,resazurin,H37Rv,-,>50 µg/mL
O=C(O)CCN1c2ccccc2Sc2ccccc21,MIC90,-,resazurin,H37Rv,-,>32 µg/mL
COCCNC(=O)c1cnccn1,inhibition,12.5 µg/mL,BACTEC,H37Rv,-,15%
CC(=O)c1c2c(cc3c(=O)c4c(O)cc5c(c4oc13)C=CC(C)(C)O5)C(C)(C)OC2=O,MIC,-,-,-,-,100 µg/mL
CCCC=C1c2ccccc2Sc2ccccc21,MIC90,-,resazurin,H37Rv,-,>32 µg/mL
COc1nc(C)nc(NC(=O)NS(=O)(=O)c2ccccc2OCCCl)n1,MIC,-,-,P4145,-,16 µM
CC(C)CNc1nc(C(N)=S)cnc1C(N)=O,MIC,-,-,H37Rv,-,50 µg/mL
CC(=O)c1c(O)n(-c2ccc(C)cc2)c(=O)c2c(N)n[nH]c12,inhibition,12.5 µg/mL,BACTEC,H37Rv,-,0%
C[C@H]1C[C@@H]1NC(=O)c1cc2sc(OC3COC3)nc2s1,MIC,-,visual reading,H37Rv,-,1.35 µM
Cc1cn2c(C(=O)NCc3ccc(N4CCC5(CC4)OCC(C)CO5)cc3)c(C)nc2s1,MIC,-,luminescence,H37Rv,-,31.7 µM
CCCCCN(C)Cc1cc(C(=O)O)ccc1Nc1ccnc(Nc2ccc3cc(C)[nH]c3c2)n1,MIC,-,resazurin,H37Rv,-,8 µg/mL
O=C(CNC(=O)c1ccccc1)N/N=C/c1ccccc1O,MIC bound,-,BACTEC,H37Rv,-,>12.5 µg/mL
O=S(=O)([O-])[O-].[O]=[V+2],MIC,-,resazurin,H37Rv (ATCC 27294),-,>50 µg/mL
O=[N+]([O-])c1cn2c(n1)OC[C@@H](OCc1ccc(Oc3ccc(C(F)(F)F)cc3)cc1)C2,MIC90,-,resazurin,-,-,0.04 µM
NC(=O)c1ncc(C(N)=S)nc1Nc1cccc(O)c1,MIC,-,-,H37Rv,-,25 µg/mL
CCCCCCCCCCCCCCCC(=O)NC1CNC(=O)C(C2CCN=C(N)N2)NC(=O)/C(=C/NC(N)=O)NC(=O)C(CO)NC(=O)C(CO)NC1=O,MIC,-,-,H37Rv,-,>40 µg/mL
Cc1cn2c(C(=O)NCc3ccc(C(F)(F)F)cc3)c(C)nc2s1,MIC,-,luminescence,H37Rv,-,18.6 µM
CC(=O)Cc1oc2c3c(cc(O)c2c(=O)c1CCC(C)(C)O)OC(C)(C)C=C3,MIC,-,-,-,-,12.5 µg/mL
COC(=O)c1nc(Cl)nc(Cl)c1N,MIC bound,-,BACTEC,H37Rv,-,>12.5 µg/mL
c1ccc(OCCCN2c3ccccc3Sc3ccccc32)cc1,MIC90,-,resazurin,H37Rv,-,>32 µg/mL
CC(NNC(=O)c1cc[n+]([B]C#N)cc1)c1cccc(F)c1,inhibition,0.5 µM,BACTEC,-,-,0%
CN(C)c1ccc(/C=C/C(=O)n2c(=O)c(=O)[nH]c3ccccc32)cc1,MIC,-,resazurin,H37Rv,-,16.4 µg/mL
O=[N+]([O-])c1cn2c(n1)OC[C@@H](OCc1ccc(Oc3ccc(OC(F)(F)F)cc3)cc1)C2,MIC90,-,resazurin,-,-,0.03 µM
C[C@@H]1CN(c2nc3sc(C(=O)N[C@H]4C[C@@H]4C)cc3s2)CCN1C1COC1,MIC,-,visual reading,H37Rv,-,3.4 µM
CCOc1c(N=Nc2cccc(Cl)c2)c(C)nn1C(=S)SC,inhibition,128 µg/mL,BACTEC,H37Rv,-,99%
Cc1cn2c(C(=O)NCc3ccc(N4CCN(c5ccc(C(F)(F)F)cn5)CC4)c(F)c3)c(C)nc2s1,MIC,-,luminescence,H37Rv,-,28.8 µM
NCCCC(N)CC(=O)NCC1NC(=O)C(CO)NC(=O)C(NC(=O)CC(N)CCCN)CNC(=O)C(C2CCN=C(N)N2)NC(=O)/C(=C/NC(N)=O)NC1=O,MIC,-,-,Isolate VIM-R/4,-,20 µg/mL
COc1cc(/C=C/C(=O)n2c(=O)c(=O)[nH]c3ccccc32)ccc1O,MIC,-,resazurin,H37Rv,-,10.8 µg/mL
COCOC(OCOC)c1ccc([N+](=O)ONNC(=O)c2ccco2)o1,inhibition,6.25 µg/mL,resazurin,H37Rv,-,99%
CCCCCN1C2=C(Sc3ccccc31)C(=O)CCC2,MIC90,-,resazurin,H37Rv,-,>32 µg/mL
O=C(ON=c1c2ccccc2ccc2ccccc12)c1cc([N+](=O)[O-])cc([N+](=O)[O-])c1,inhibition,12.5 µg/mL,BACTEC,H37Rv,-,18%
O=C(NCc1ccc(Oc2ccc(Cl)cc2O)c(Cl)c1)c1cc(-c2ccccc2)on1,MIC,-,MTT,H37Rv,-,>100 µg/mL
COC(=O)N1CC[C@@H](Oc2nc3sc(C(=O)NC4CCC4)cc3s2)C1,MIC,-,visual reading,H37Rv,-,0.48 µM
NC(=O)c1ncc(C(N)=S)nc1Nc1ccccc1,MIC,-,-,H37Rv,-,50 µg/mL
C[C@@H]1CN(c2nc3sc(C(=O)NC4CC5(CC5)C4)cc3s2)CCN1C1COC1,MIC,-,visual reading,H37Rv,-,1.32 µM
NCCCCC(C(=O)NC(CO)C(=O)O)N(C(=O)OCc1ccccc1)C(=O)OCc1ccccc1,MIC bound,-,BACTEC,H37Rv,-,>12.8 µg/mL
O=C(N=Nn1c(O)c(O)c2ccccc21)c1cccnc1,inhibition,6.25 µg/mL,resazurin,H37Rv,-,57%
CCOC(=O)C(C)c1c(C(=O)c2ccc(C)nc2)c2ccccc2n1C,MIC bound,-,BACTEC,H37Rv,-,>6.25 µg/mL
Cc1cn([C@@H]2O[C@H](CO)[C@@H](Br)[C@@H]2O)c(=O)[nH]c1=O,EC50,-,-,H37Ra,-,100 µg/mL
O=C1CN(Cc2ccccc2)CC(=O)N2Cc3ccccc3CN12,MIC bound,-,BACTEC,H37Rv,-,>12.5 µg/mL
O=[N+]([O-])c1cn2c(n1)OC[C@@H](OCc1ccc(-c3ccc(Oc4ccc(F)cc4)nc3)cc1)C2,MIC90,-,low oxygen,-,-,0.8 µM
CC(C)=CCc1c2c(c3oc4c(cc5c6c(c(=O)cc(O)c64)OC5(C)C)c(O)c3c1O)C=CC(C)(C)O2,MIC,-,-,-,-,6.25 µg/mL
CC(C)[C@H](NC(=O)OC(C)(C)C)C(=O)N[C@@H](C)C(=O)N1CCC[C@H]1C(=O)O,MIC bound,-,resazurin,H37Rv,-,>6.25 µg/mL
C[C@@H]1CN(c2nc3sc(C(=O)N[C@H]4C[C@@H]4C)cc3s2)CCO1,MIC,-,visual reading,H37Rv,-,2.83 µM

Repeating the final 7 entries:

{"smiles": "CCOC(=O)C(C)c1c(C(=O)c2ccc(C)nc2)c2ccccc2n1C", "measure": "MIC bound", "read by": "BACTEC", "strain or isolate": "H37Rv", "value": ">6.25 µg/mL"}
{"smiles": "Cc1cn([C@@H]2O[C@H](CO)[C@@H](Br)[C@@H]2O)c(=O)[nH]c1=O", "measure": "EC50", "strain or isolate": "H37Ra", "value": "100 µg/mL"}
{"smiles": "O=C1CN(Cc2ccccc2)CC(=O)N2Cc3ccccc3CN12", "measure": "MIC bound", "read by": "BACTEC", "strain or isolate": "H37Rv", "value": ">12.5 µg/mL"}
{"smiles": "O=[N+]([O-])c1cn2c(n1)OC[C@@H](OCc1ccc(-c3ccc(Oc4ccc(F)cc4)nc3)cc1)C2", "measure": "MIC90", "read by": "low oxygen", "value": "0.8 µM"}
{"smiles": "CC(C)=CCc1c2c(c3oc4c(cc5c6c(c(=O)cc(O)c64)OC5(C)C)c(O)c3c1O)C=CC(C)(C)O2", "measure": "MIC", "value": "6.25 µg/mL"}
{"smiles": "CC(C)[C@H](NC(=O)OC(C)(C)C)C(=O)N[C@@H](C)C(=O)N1CCC[C@H]1C(=O)O", "measure": "MIC bound", "read by": "resazurin", "strain or isolate": "H37Rv", "value": ">6.25 µg/mL"}
{"smiles": "C[C@@H]1CN(c2nc3sc(C(=O)N[C@H]4C[C@@H]4C)cc3s2)CCO1", "measure": "MIC", "read by": "visual reading", "strain or isolate": "H37Rv", "value": "2.83 µM"}

Rows are shuffled and stem from different studies. Blank or dashed fields: not listed here. MIC bound comes from a single tested concentration. A number after MIC or MFC names an inhibition level or a share of isolates. ECn is the concentration giving n% inhibition of infection, replication or growth.